Assay results published in BindingDB's records for doi:10.1016/j.bmc.2017.03.009 (Wuhan Institute of Technology, 2017).
pEC50: −log10 of the molar value.

Assays:
[1] = Inhibition of HIV-1 reverse transcriptase E138K mutant infected in human MT4 cells assessed as protection against virus-induced cytopathic effect measured at 5 days post infection by MTT assay
[2] = Inhibition of HIV1 RES056 reverse transcriptase K103N/Y181C double mutant infected in human MT4 cells assessed as protection against virus-induced cytopathic effect measured at 5 days post infection by MTT assay

Question: With `Cc1cc(C#N)cc(C)c1Oc1nc(Nc2ccc(C#N)cc2)nc(N)c1Br` as the compound, how does the pEC50 [1] read?
Answer: Its pEC50 is 7.77.

Question: What about the pEC50 [2] of the same compound?
Answer: The pEC50 was 7.34.
